# Test system: catalase enzyme
# Conditions: 4 mL oxidant solution added to 40 mL untreated water, room temperature, 4 minutes
smiles,measurement,value
OO [hydrogen peroxide],thickness of foam head formed,approximately 1 inch
